Pooled drug test results. Numbers come from NIAID ChemDB, via PubChem.

Common to all: whole-cell or culture tests; organism: HIV-1; cell line: MT-4; read-out: EC50

a–b is a range or a potency band. ECn: concentration that inhibits the pathogen or its effect by n%. Lines come from different laboratories, so protocols vary.

CC(C)CN(C[C@@H](O)[C@H](Cc1ccccc1)NC(=O)OC1COC2OCCC12)S(=O)(=O)c1ccc2c(c1)/C(=C/c1ccccc1)C(=O)N2 ; strain: LAI ; method: cytopathic effect / MTT ; value: 0.059 µM
CCOCn1c(Cc2cc(Cl)cc(Cl)c2)c(CC)c(=O)[nH]c1=O ; strain: NNRTI-resistant (RT K103N Y181C) A17 ; changes: RT-K103N Y181C ; method: cytopathic effect / MTT ; value: >10 µM
CCC(/C=C1\C(=O)Nc2ccc(S(=O)(=O)N(CC(C)C)C[C@@H](O)[C@H](Cc3ccccc3)NC(=O)O[C@H]3CO[C@H]4OCC[C@H]43)cc21)CC ; strain: F ; changes: PR-L10F M46I M71V I84V ; method: cytopathic effect / MTT ; value: 0.104 µM
CC(=O)N1CCn2c(nc(C(=O)NCc3ccc(F)cc3)c(O)c2=O)C(N(C)Cc2ccccc2)C1 ; method: p24 ; value: <1 µM
CCOC(=O)c1cnn2c1nnc1cc([N+](=O)[O-])ccc12 ; strain: IIIB ; method: cytopathic effect / MTT ; value: >12.7 µM
Cc1cn([C@H]2C[C@H](N=[N+]=[N-])[C@@H](CO)O2)c(=O)[nH]c1=O ; strain: IIIB ; changes: K103N ; method: MTT ; value: 0.019 µM
NS(=O)(=O)c1ccc(NC(=O)COc2cc(Cl)cc(Oc3ccccc3)c2)c(Cl)c1 ; method: p24 ; value: <20 µM
CCC(C)[C@@H](C(=O)N[C@@H](Cc1ccccc1)[C@H](O)CN(CC(C)C)S(=O)(=O)c1ccc(/C=N/O)cc1)N1CCN(Cc2ccccn2)C1=O ; method: cytopathic effect / MTT ; value: 0.005 µM
CC(=O)N(CCN1CCCC1)c1nc2ccc(S(=O)(=O)N(CC(C)C)C[C@@H](O)[C@H](Cc3ccccc3)NC(=O)O[C@H]3CO[C@H]4OCC[C@H]43)cc2s1 ; strain: R13025 ; method: cytopathic effect / MTT ; value: 0.0045 µM
N#Cc1cnn2c1nnc1ccccc12 ; strain: IIIB ; method: cytopathic effect / MTT ; value: >200 µM
CN(C)S(=O)(=O)c1ccc2c(c1)CCN2C(=O)COc1cc(Cl)cc(Oc2cc(Cl)cc(C#N)c2)c1 ; method: p24 ; value: <20 µM
CCc1c(Cc2cc(Cl)cc(Cl)c2)n(COC/C=C/c2ccccc2)c(=O)[nH]c1=O ; strain: IIIB ; method: cytopathic effect / MTT ; value: 0.04 µM
Cc1cn([C@H]2C[C@H](N=[N+]=[N-])[C@@H](COP(=O)(O)CCl)O2)c(=O)[nH]c1=O ; strain: GKV-4046 ; method: MTT / p24 ; value: 0.05 µM
[O-][n+]1nc2ccnn2c2cc(Cl)ccc21 ; strain: IIIB ; method: cytopathic effect / MTT ; value: >200 µM
CC(C)CN(C[C@@H](O)[C@H](Cc1ccccc1)NC(=O)OCc1cncs1)S(=O)(=O)c1ccc2nc(N(C)C(=O)CN(C)C)sc2c1 ; strain: R13025 ; method: cytopathic effect / MTT ; value: 0.0631 µM
C#CCOCn1c(Cc2cc(Cl)cc(Cl)c2)c(CC)c(=O)[nH]c1=O ; strain: NNRTI-resistant (RT Y181C) N119 ; changes: RT-Y181C ; method: cytopathic effect / MTT ; value: 12 µM
CN(CC1c2nc(C(=O)NCc3ccc(F)cc3)c(O)c(=O)n2CCN1C)C(=O)c1ccccn1 ; method: p24 ; value: 1–10 µM
CC(C)CN(C[C@@H](O)[C@H](Cc1ccccc1)NC(=O)O[C@H]1CO[C@H]2OCC[C@H]21)S(=O)(=O)c1ccc2nc(NC3CCN(C4CCCC4)CC3)sc2c1 ; strain: T21729 ; changes: R41E ; method: reporter gene ; value: 110 nM
CC1(C)c2nc(C(=O)NCc3ccc(F)cc3)c(O)c(=O)n2CCN1CC(=O)N1CCOCC1 ; method: p24 ; value: <1 µM
C=CCOCn1c(Cc2cc(Cl)cc(Cl)c2)c(CC)c(=O)[nH]c1=O ; strain: NNRTI-resistant (RT Y181C) N119 ; changes: RT-Y181C ; method: cytopathic effect / MTT ; value: >10 µM
CCOC(=O)c1cnn2c1n[n+]([O-])c1cc([N+](=O)[O-])ccc12 ; strain: IIIB ; method: cytopathic effect / MTT ; value: >1.3 µM
CC(C)CN(C[C@@H](O)[C@H](Cc1ccccc1)NC(=O)[C@H](C(C)C)N1CC(=O)N(Cc2ccncc2)C1=O)S(=O)(=O)c1ccc(/C=N/O)cc1 ; method: cytopathic effect / MTT ; conditions: 50% human serum ; value: 0.042 µM
N#Cc1cc(Cl)cc(Oc2cc(F)c(Cl)c(OCc3[nH]nc4ncccc34)c2)c1 ; method: p24 ; value: <20 µM
Cc1ccc(/C=C2\C(=O)Nc3ccc(S(=O)(=O)N(CC(C)C)C[C@@H](O)[C@H](Cc4ccccc4)NC(=O)O[C@H]4CO[C@H]5OCC[C@H]54)cc32)s1 ; strain: LAI ; method: cytopathic effect / MTT ; value: 0.011 µM
CC(C)CN(C[C@@H](O)[C@H](Cc1ccccc1)NC(=O)[C@@H](N1CCN(Cc2cccnc2)C1=O)C(C)(C)C)S(=O)(=O)c1ccc(/C=N/O)cc1 ; method: cytopathic effect / MTT ; value: 0.001 µM
CC(C)CN(C[C@@H](O)[C@H](Cc1ccccc1)NC(=O)OC(C)(C)C)S(=O)(=O)c1ccc2nc(NCc3ccncc3)sc2c1 ; strain: IIIB ; method: cytopathic effect / MTT ; value: 0.3311 µM
CCC(C)[C@@H](C(=O)N[C@@H](Cc1ccccc1)[C@H](O)CN(CC(C)C)S(=O)(=O)c1ccc(/C=N/O)cc1)N1CCN(Cc2cccnc2)C1=O ; method: cytopathic effect / MTT ; conditions: 50% human serum ; value: 0.029 µM
CC1(C)c2nc(C(=O)NCc3ccc(F)cc3)c(O)c(=O)n2CCN1Cc1cnccn1 ; method: p24 ; value: <1 µM
COc1ccc(S(=O)(=O)N(CC(C)C)C[C@@H](O)[C@H](Cc2ccccc2)NC(=O)[C@H](C(C)C)N2CC(=O)N(Cc3ccccc3)C2=O)cc1 ; method: cytopathic effect / MTT ; conditions: 50% human serum ; value: 0.032 µM
Cc1ccc(CNC(=O)c2nc3n(c(=O)c2O)CCN(C)CC3N(C)C(=O)C(=O)N(C)C)cc1Cl ; method: p24 ; value: <1 µM
CC(C)CN(C[C@@H](O)[C@H](Cc1ccccc1)NC(=O)O[C@H]1CCOC1)S(=O)(=O)c1ccc2nc(N(C)CCN(C)C)sc2c1 ; strain: LAI ; method: cytopathic effect / MTT ; value: <0.05 µM
N#Cc1cnn2c1nnc1ccc(Cl)cc12 ; strain: IIIB ; method: cytopathic effect / MTT ; value: >16.7 µM
CC(C)CN(C[C@@H](O)[C@H](Cc1ccccc1)NC(=O)O[C@H]1CO[C@H]2OCC[C@H]21)S(=O)(=O)c1ccc2c(c1)/C(=C/c1ccc(N(C)C)cc1)C(=O)N2 ; strain: LAI ; method: cytopathic effect / MTT ; value: 0.044 µM
Cc1cn([C@H]2C[C@H](N=[N+]=[N-])[C@@H](COP(=O)(O)C(N)=O)O2)c(=O)[nH]c1=O ; strain: GKV-4046 ; method: MTT / p24 ; value: 0.1 µM
Cc1cc(C#N)cc(C)c1Oc1nc(Nc2ccc(C#N)cc2)nc(N)c1Br ; strain: RES056 ; method: MTT ; value: 0.034 µM
Cc1cc(N)ccc1C(=O)N[C@@H](Cc1ccccc1)[C@H](O)CN(CC(C)C)S(=O)(=O)c1ccc2nc(NC(=O)CN3CCCC3)sc2c1 ; strain: LAI ; method: cytopathic effect / MTT ; value: <0.05 µM
COC1CN(c2ccc3c(COc4ccc(Cl)c(Oc5cc(Cl)cc(C#N)c5)c4)[nH]nc3n2)C1 ; method: p24 ; value: <20 µM
CCc1c(Cc2cc(Cl)cc(Cl)c2)n(COC2Cc3ccccc3C2)c(=O)[nH]c1=O ; strain: NNRTI-resistant (RT Y181C) N119 ; changes: RT-Y181C ; method: cytopathic effect / MTT ; value: 2.1 µM
O=C(NCc1ccc(F)cc1F)c1cn2c(c(O)c1=O)C(=O)N1C3CC(COC1C2)C3 ; strain: NL4-3 ; method: GFP ; conditions: 0% human serum ; value: 0.002 µM
CC(C)CN(C[C@@H](O)[C@H](Cc1ccccc1)NC(=O)OCc1cncs1)S(=O)(=O)c1ccc2nc(N(C)C(=O)CN3CCN(C)CC3)sc2c1 ; strain: R13025 ; method: cytopathic effect / MTT ; value: 0.0302 µM

A second listing of 3 rows from above:

{"smiles": "N#Cc1cnn2c1nnc1ccccc12", "strain": "IIIB", "method": "cytopathic effect / MTT", "value": ">200 µM"}
{"smiles": "CC(C)CN(C[C@@H](O)[C@H](Cc1ccccc1)NC(=O)O[C@H]1CO[C@H]2OCC[C@H]21)S(=O)(=O)c1ccc2c(c1)/C(=C/c1ccc(N(C)C)cc1)C(=O)N2", "strain": "LAI", "method": "cytopathic effect / MTT", "value": "0.044 µM"}
{"smiles": "CCOC(=O)c1cnn2c1nnc1cc([N+](=O)[O-])ccc12", "strain": "IIIB", "method": "cytopathic effect / MTT", "value": ">12.7 µM"}